Compound potency records, mixed from different reports. Data source: NIAID ChemDB in PubChem.

Common to all: whole-cell or culture tests; agent: Mycobacterium smegmatis

Conditions beyond the fields shown may differ between rows. MIC50, MIC90 and the like: level of inhibition, or share of isolates inhibited. An empty or dashed field is not shown. Two numbers with a dash give a range or band.

structure | strain | read-out | method | value
CCC1CN(c2c(F)cc3c(=O)c(C(=O)O)cn(C4CC4)c3c2F)CCN1 | KD1163 (GRYA+) | MIC99 |  | 0.068 µg/mL
CC1CN(c2c(F)cc3c(=O)c(C(=O)O)cn(C4CC4)c3c2Cl)CCN1 | ATCC 19420 | MIC |  | 0.13 µg/mL
CNCC1CCCN(c2c(F)cn3c(=O)c(C(=O)O)cc(C4CC4)c3c2C)C1.Cl | ATCC114 | MIC |  | 0.39 µg/mL
Cc1nc(-c2ccc(F)cc2)sc1-c1csc(Cc2ccc(F)cc2)n1 |  | MIC | absorbance | 30.38 µM
CCC1CN(c2c(F)cc3c(=O)c(C(=O)O)cn(C4CC4)c3c2OC)CCN1 | KD1991 (GYRA D95Y) | MIC99 |  | 0.47 µg/mL
CCCc1cnc(C(=O)/C=C/c2ccc(Cl)cc2)cn1 | CCM | MIC | absorbance | >500 µg/mL
CC1CN(c2c(F)cc3c(=O)c(C(=O)O)cn(C4CC4)c3c2C(F)(F)F)CCN1 | ATCC 19420 | MIC |  | 2 µg/mL
COCOCC1CCCN(c2c(F)cn3c(=O)c(C(=O)O)cc(C4CC4)c3c2C)C1.Cl | ATCC114 | MIC |  | 3.1 µg/mL
COc1c(N2CC(C)NC(C)C2)c(F)cc2c(=O)c(C(=O)O)cn(C3CC3)c12 | KD2008 (GYRA G89C) | MIC99 |  | 0.91 µg/mL
CCCCCCCCCCCCCCCC[N+](C)(C)CC | PMN1 LFR | MIC |  | 16 µg/mL
CCCC(N)C1CCN(c2c(F)cn3c(=O)c(C(=O)O)cc(C4CC4)c3c2C)C1.Cl | ATCC114 | MIC |  | 0.01 µg/mL
COc1c(N2CCNC(C)C2)c(F)cc2c(=O)c(C(=O)O)cn(C3CC3)c12 | KD1987 (GYRA A91V) | MIC99 |  | 0.23 µg/mL
C[C@@H]1CN(c2nc3c(cc2F)c(=O)c(C(=O)O)cn3C(C)(C)C)C[C@H](C)N1 | ATCC 19420 | MIC |  | 0.13 µg/mL
CC(C)Cc1cnc(C(=O)/C=C/c2ccc(Cl)cc2)cn1 | CCM | MIC | absorbance | >125 µg/mL
Cc1c(N2CCC(F)C2)c(F)cn2c(=O)c(C(=O)O)cc(C3CC3)c12 | ATCC114 | MIC |  | 0.78 µg/mL
CC(C)N1CCN(c2c(F)cc3c(=O)c(C(=O)O)cn(C4CC4)c3c2F)CC1 | KD1995 (GYRA D95H) | MIC99 |  | 3.8 µg/mL
c1ccc(/C(=N/Nc2nc3ccccc3s2)c2ccccn2)cc1 | mc2155 | MIC |  | >100 µM
O=C(O)c1cn(C2CC2)c2c(C(F)(F)F)c(N3CCNCC3)c(F)cc2c1=O | ATCC 19420 | MIC |  | 0.5 µg/mL
CO[C@H]1/C=C/O[C@@]2(C)Oc3c(C)c(O)c4c(O)c(c(/C=N/N5CCN(C)CC5)c(O)c4c3C2=O)NC(=O)/C(C)=C\C=C\[C@H](C)[C@H](O)[C@@H](C)[C@@H](O)[C@@H](C)[C@H](OC(C)=O)[C@@H]1C |  | MIC | absorbance | 9.72 µM
CC(C)(C)n1cc(C(=O)O)c(=O)c2cc(F)c(N3CCNCC3)nc21 | ATCC 19420 | MIC |  | 0.13 µg/mL
Nc1nc(Cl)nc2c1ncn2[C@@H]1O[C@H](CO)[C@@H](O)[C@H]1O | mc2155 | MIC |  | >100 µM
CSCC[C@H](N)[C@@H]1CCN(c2c(F)cn3c(=O)c(C(=O)O)cc(C4CC4)c3c2C)C1 | ATCC114 | MIC |  | 0.1 µg/mL
O=[N+]([O-])c1cccc(/C=N/Nc2ccc3ccccc3n2)c1O | mc2155 | MIC |  | >100 µM
Cc1c(N2CCC(CCO)CC2)c(F)cn2c(=O)c(C(=O)O)cc(C3CC3)c12 | ATCC114 | MIC |  | 0.2 µg/mL
Cc1nc(-c2ccccc2)sc1-c1csc(-c2ccc(F)c(Cl)c2)n1 |  | MIC | absorbance | 71.1 µM
OC(c1cc(-c2ccccc2)nc2c1ccc1ccccc12)C1CCCCN1 | mc2155 | MIC |  | 12.5 µM
CC1CN(c2c(F)cc3c(=O)c(C(=O)O)cn(C4CC4)c3c2Br)CCN1 | ATCC 19420 | MIC |  | 0.06 µg/mL
CCC1CN(c2cc3c(cc2F)c(=O)c(C(=O)O)cn3C2CC2)CCN1 | KD2012 (GYRA G89A) | MIC99 |  | 1 µg/mL
Nc1ccccc1O.O.O=C(O)C1[O][Sb][O]C1C(=O)O | mc2155 | MIC |  | 50 µM
O=C(O)c1cn(C2CC2)c2cc(N3CCNCC3)c(F)cc2c1=O | CCM | MIC | absorbance | 0.098–0.195 µg/mL
CC(C)N1CCN(c2cc3c(cc2F)c(=O)c(C(=O)O)cn3C2CC2)CC1 | KD1987 (GYRA A91V) | MIC99 |  | 1.5 µg/mL
Cc1nc(-c2ccccc2)sc1-c1csc(-c2ccc(Br)cc2)n1 |  | MIC | absorbance | 80.66 µM
Cc1c(N2CC[C@H]([C@@H](C)N)C2)c(F)cn2c(=O)c(C(=O)O)cc(C3CC3)c12.Cl | ATCC114 | MIC |  | 0.2 µg/mL
CC(C)Cc1cnc(C(=O)/C=C/c2ccc(Br)cc2)cn1 | CCM | MIC | absorbance | 250 µg/mL
CCN1CCN(c2c(F)cc3c(=O)c(C(=O)O)cn(C4CC4)c3c2F)CC1 | ATCC 19420 | MIC |  | 0.25 µg/mL
Cc1ccc(-c2nc(C)c(-c3csc(-c4ccc(F)cc4)n3)s2)cc1 |  | MIC | absorbance | >100 µM
CC(C)(C)c1cnc(C(=O)/C=C/c2ccccc2Br)cn1 | CCM | MIC | absorbance | 62.5 µg/mL
CCOc1c(N2CCN(CC)CC2)c(F)cc2c(=O)c(C(=O)O)cn(C3CC3)c12 | ATCC 19420 | MIC |  | 0.5 µg/mL
CC1CN(c2cc3c(cc2F)c(=O)c(C(=O)O)cn3C2CC2)CCN1 | KD1991 (GYRA D95Y) | MIC99 |  | 2.6 µg/mL
Cc1nc(-c2ccc(F)cc2)sc1-c1csc(-c2ccc(F)c(Cl)c2)n1 |  | MIC | absorbance | 54.71 µM
Cc1c(N2CC(N)C(O)C2)c(F)cn2c(=O)c(C(=O)O)cc(C3CC3)c12.Cl | ATCC114 | MIC |  | 0.2 µg/mL
CCOc1c(N2CCC(CNC)C2)c(F)cc2c(=O)c(C(=O)O)cn(C3CC3)c12 | ATCC 19420 | MIC |  | 0.25 µg/mL
CO[C@H]1[C@@H](O)[C@@H](C)O[C@H](O[C@H]2[C@H](Oc3cccc4c(O)c5c(=O)oc6ccc(C)c7c(=O)oc(c34)c5c67)O[C@H](C)[C@H](O)[C@@H]2O)[C@@H]1O | mc2155 | MIC |  | 1.56 µM
Cc1nc(-c2ccccc2)sc1-c1csc(Cc2ccc(F)cc2)n1 |  | MIC | absorbance | >100 µM
CC1CN(c2c(F)cc3c(=O)c(C(=O)O)cn(C4CC4)c3c2F)CC(C)N1 | KD1991 (GYRA D95Y) | MIC99 |  | 0.91 µg/mL
COC(=O)[C@@H]1[C@H](O)[C@H](C)C(O)[C@H](C)/C=C\C=C(/C)C(=O)Nc2c(C)c(OC(C)=O)c3c(c2O)C(=O)C(C)=C2OCOC(=C23)/C(C)=C/[C@@](C)(O)[C@H](O)[C@@H](C)[C@H]1OC(C)=O | mc2155 | MIC |  | 12.5 µM
NCC[C@H](O)C(=O)N[C@@H]1C[C@H](N)[C@@H](O[C@H]2O[C@H](CN)[C@@H](O)[C@H](O)[C@H]2O)[C@H](O)[C@H]1O[C@H]1O[C@H](CO)[C@@H](O)[C@H](N)[C@H]1O | 6 strains | Median MIC |  | 0.25 µg/mL
CC1OC(CC(=O)O)CC2=C1C(=O)c1c(O)cccc1C2=O | mc2155 | MIC |  | >100 µM
CC[n+]1c(-c2ccccc2)c2cc(N)ccc2c2ccc(N)cc21 | PSB51 LFR | MIC |  | 16 µg/mL

7 of the rows above, restated:

structure,strain,read-out,method,value
CO[C@H]1[C@@H](O)[C@@H](C)O[C@H](O[C@H]2[C@H](Oc3cccc4c(O)c5c(=O)oc6ccc(C)c7c(=O)oc(c34)c5c67)O[C@H](C)[C@H](O)[C@@H]2O)[C@@H]1O,mc2155,MIC,,1.56 µM
CSCC[C@H](N)[C@@H]1CCN(c2c(F)cn3c(=O)c(C(=O)O)cc(C4CC4)c3c2C)C1,ATCC114,MIC,,0.1 µg/mL
Nc1ccccc1O.O.O=C(O)C1[O][Sb][O]C1C(=O)O,mc2155,MIC,,50 µM
Cc1c(N2CCC(F)C2)c(F)cn2c(=O)c(C(=O)O)cc(C3CC3)c12,ATCC114,MIC,,0.78 µg/mL
CC(C)N1CCN(c2c(F)cc3c(=O)c(C(=O)O)cn(C4CC4)c3c2F)CC1,KD1995 (GYRA D95H),MIC99,,3.8 µg/mL
COC(=O)[C@@H]1[C@H](O)[C@H](C)C(O)[C@H](C)/C=C\C=C(/C)C(=O)Nc2c(C)c(OC(C)=O)c3c(c2O)C(=O)C(C)=C2OCOC(=C23)/C(C)=C/[C@@](C)(O)[C@H](O)[C@@H](C)[C@H]1OC(C)=O,mc2155,MIC,,12.5 µM
CO[C@H]1/C=C/O[C@@]2(C)Oc3c(C)c(O)c4c(O)c(c(/C=N/N5CCN(C)CC5)c(O)c4c3C2=O)NC(=O)/C(C)=C\C=C\[C@H](C)[C@H](O)[C@@H](C)[C@@H](O)[C@@H](C)[C@H](OC(C)=O)[C@@H]1C,,MIC,absorbance,9.72 µM